Compound potency records, mixed from different reports. Data source: NIAID ChemDB in PubChem.

Common to all: whole-cell or culture tests; agent: HIV-1; method: p24; read-out: EC50

ECn is the concentration giving n% inhibition of infection, replication or growth. Blank or dashed fields: not listed here. Lines come from different laboratories, so protocols vary.

structure,strain,mutations,cell line,setting,value
CC(=O)c1cccc(-n2nnnc2SCC(=O)Nc2ccccc2Cl)c1,,,MT-4,,<10 µM
O=c1[nH]cnc2c1ncn2[C@H]1CC[C@@H](CO)O1,NL4-3,RT-I178L T215Y,MT-2,,0.51 µM
Cc1cn([C@H]2C=C[C@@H](CO)O2)c(=O)[nH]c1=O,NL4-3 WT,,PBMC,,0.04 µM
CC(C)Nc1cccnc1N1CCN(C(=O)c2cc3cc(NS(C)(=O)=O)ccc3[nH]2)CC1,,RT-E89G,PBMC,,0.04 µM
COc1ccc2c(c1)N(C(=O)OC(C)C)[C@@H](CSC)C(=S)N2,IIIB,,CEM,,0.001 µg/mL
O=c1[nH]cnc2c1ncn2[C@H]1CC[C@@H](CO)O1,8420 CLADE D CLADE D,,PBMC,,7.23 µM
CCCc1nnc(C[C@H](C[C@H](O)CN2CCN(Cc3ccc(-c4ccc(Cl)cc4)o3)C[C@H]2C(=O)NCC(F)(F)F)C(=O)N[C@H]2c3ccccc3OC[C@H]2O)o1,V-18 Clinical isolate,PR-L10I M36I N37D M46I R57K L63P A71V G73S I84V L90M I93L,MT-4,,<0.125 µM
O=c1[nH]cnc2c1ncn2[C@H]1CC[C@@H](CO)O1,NL4-3 WT,,PBMC,,0.4 µM
Cc1cn([C@H]2C[C@H](N=[N+]=[N-])[C@@H](CO)O2)c(=O)[nH]c1=O,CC10 Clinical isolates,,,,0.01 µM
CN[C@@H]1[C@H](O[C@@H]2OC[C@@H](O)[C@H](O)[C@H]2O)[C@@H](O)[C@H](O[C@H]2c3cc(C)c(C(=O)N[C@H](C)C(=O)O)c(O)c3-c3c(cc4c(c3O)C(=O)c3cc(OC)cc(O)c3C4=O)[C@@H]2O)O[C@@H]1C,IIIB X4,,PBMC,,2.8 µg/mL
COC(=O)[C@H](C)NP(=O)(OC[C@@H]1C=C[C@H](n2cc(C)c(=O)[nH]c2=O)O1)Oc1ccc(Br)cc1,4755-5 NRTI resistant recombinant,RT-M41L E44D D67N T69D Y118I M184V L210W T215Y,PBMC,,0.006 µM
COc1ccc(CN[C@@H](C(=O)N[C@H](C(=O)NCc2nc3ccccc3[nH]2)C(C)C)[C@H](O)[C@H](Cc2ccccc2)NC(=O)[C@@H](NC(=O)CCc2ccc(O)cc2)C(C)(C)C)cc1,RF,,MT-4,,0.14 µM
Cc1ccnc2c1NC(=O)c1cccnc1N2C1CC1,MN,,H9,,0.09 µg/mL
O=C1N(Cc2ccc(CO)cc2)[C@H](Cc2ccccc2)[C@H](O)[C@@H](O)[C@@H](Cc2ccccc2)N1Cc1ccc(CO)cc1,2 clinical isolate,,PBMC,,0.04 µM
Nc1nc(=O)n([C@@H]2CO[C@H](CO)S2)cc1F,HXB2D,,PBMC,,1 µM
O=C(N[C@H]1c2ccccc2OC[C@H]1O)[C@H](Cc1nnc(-c2ccccc2)o1)C[C@H](O)CN1CCN(Cc2ccc(-c3ccc(Cl)cc3)o2)C[C@H]1C(=O)NCC(F)(F)F,V-18 Clinical isolate,PR-L10I M36I N37D M46I R57K L63P A71V G73S I84V L90M I93L,MT-4,,<0.25 µM
CC(C)(C)OC(=O)N[C@@H](Cc1ccccc1)[C@H](O)CNC[C@@H](O)[C@H](Cc1ccc(OCC(=O)N2CCOCC2)cc1)NC(=O)OC(C)(C)C,NL4-3,,MT-2,,0.032 µM
Nc1ccn([C@H]2CO[C@@H](CO)S2)c(=O)n1,HXB2D (RT-M184V),RT-M184V,PBMC,,3 µM
Cc1cn([C@@H]2O[C@H](CO[Si](C)(C)C(C)(C)C)C3(OS(=O)(=O)C=C3N)[C@H]2O[Si](C)(C)C(C)(C)C)c(=O)n(C)c1=O,IIIB,RT-Y181C,CEM,,2 µg/mL
O=C(N[C@H]1c2ccccc2OC[C@H]1O)[C@H](Cc1cccnc1)C[C@H](O)CN1CCN(Cc2ccn(-c3ccccc3Cl)c2)C[C@H]1C(=O)NCC(F)(F)F,V-18C Clinical isolate,PR-L10I M36I N37D M46I R57K L63P A71V G73S I84V L90M I93L,MT-4,,<0.031 µM
CC(C)(c1ncc(-c2ccc(Cl)cc2)o1)N1CCN(C[C@@H](O)C[C@@H](Cc2nnc(-c3ccccc3)o2)C(=O)N[C@H]2c3ccccc3OC[C@H]2O)[C@H](C(=O)NCC(F)(F)F)C1,V-18 Clinical isolate,PR-L10I M36I N37D M46I R57K L63P A71V G73S I84V L90M I93L,MT-4,,<0.125 µM
N#Cc1ccccc1-n1ccc(CN2CCN(C[C@@H](O)C[C@@H](Cc3cccnc3)C(=O)N[C@H]3c4ccccc4OC[C@H]3O)[C@H](C(=O)NCC(F)(F)F)C2)c1,K-60C Clinical isolate,PR-L10I M46I I54V Q58E L63P I64V V77I V82F I84V L90M I93L,MT-4,,<0.25 µM
CCc1cc(NCc2nc3c(C)ccc(C)c3o2)c(=O)[nH]c1C,RUTZ,,MT-4,,<0.05 µM
Cc1cn([C@H]2C[C@H](N=[N+]=[N-])[C@@H](CO)O2)c(=O)[nH]c1=O,7295-1 NRTI resistant recombinant,RT-D67N T69N K70R M184V T215F K219Q,PBMC,,0.137 µM
COc1ccc(CN[C@@H](C(=O)N[C@H]2c3ccccc3C[C@H]2O)[C@H](O)[C@H](Cc2ccccc2)NC(=O)[C@@H](NC(=O)OCc2ccccc2)C(C)(C)C)cc1,IIIB,,U-937,,0.079 µM
Nc1nc(=O)n([C@H]2CO[C@@H](CO)S2)cc1F,HXB2D,,PBMC,,1.5 µM
CCCc1nnc(C[C@H](C[C@H](O)CN2CCN(C(C)(C)c3ncc(-c4cncc(OC)c4)o3)C[C@H]2C(=O)NCC(F)(F)F)C(=O)N[C@H]2c3ccccc3OC[C@H]2O)o1,Q-60 Clinical isolate,PR-L10I N37S R41K M46I I54V I62V L63P A71V V77I V82A L90M I93L,MT-4,,<0.5 µM
Nc1ccn([C@@H]2CO[C@H](CO)S2)c(=O)n1,HXB2D (RT-M184V),RT-M184V,PBMC,,0.53 µM
Nc1ncnc2c1ncn2[C@H]1C=C[C@@H](CO)O1,BaL,,MM + M/M,,5 µM
Cc1nnc(C[C@H](C[C@H](O)CN2CCN(C(C)(C)c3ncc(-c4ccc(F)cc4)o3)C[C@H]2C(=O)NCC(F)(F)F)C(=O)N[C@H]2c3ccccc3OC[C@H]2O)o1,K-60 Clinical isolate,PR-L10I M46I I54V Q58E L63P I64V V77I V82F I84V L90M I93L,MT-4,,<0.125 µM
Cc1cc(C)c(-n2nnnc2SCC(=O)Nc2cccc3ncccc23)c(C)c1,,,MT-4,,<10 µM
Nc1ccn([C@H]2CC[C@@H](CO)O2)c(=O)n1,JR-CSF,,PBMC,,0.025 µM
C=C(C)OC(=O)N1c2cc(Cl)ccc2NC(=S)C1(C)C,B9 (RT L100I V106A G190A),RT-L100I V106A G190A,H9,,>10 µg/mL
Cc1cn([C@H]2C[C@H](N=[N+]=[N-])[C@@H](CO)O2)c(=O)[nH]c1=O,rHXB2,,MT-4,,<0.025 µM
COc1cc([N+](=O)[O-])ccc1NC(=O)CSc1nnnn1-c1c(C)cc(C)cc1C,,,MT-4,,<10 µM
COc1ccc(CN[C@@H](C(=O)N[C@H](C(=O)NCc2nc3ccccc3[nH]2)C(C)C)[C@H](O)[C@H](Cc2ccccc2)NC(=O)[C@@H](NC(=O)OCc2ccccc2)C(C)(C)C)cc1,D747,,Monocytes + Monocyte,clinical isolate,0.023 µM
Cc1ccnc2c1NC(=O)c1cccnc1N2C1CC1,HXB2,,C8166,,0.06 µM
Cc1ccnc2c1NC(=O)c1cccnc1N2C1CC1,IIIB,RT-G190E,CEM,,>50 µg/mL
Cc1cn([C@H]2C[C@H](N=[N+]=[N-])[C@@H](CO)O2)c(=O)[nH]c1=O,Primary clinical isolate Rome,,PBMC,,<3.7 µM
CCCc1nnc(C[C@H](C[C@H](O)CN2CCN(C(C)(C)c3ncc(-c4ccc(F)cc4)o3)C[C@H]2C(=O)NCC(F)(F)F)C(=O)N[C@H]2c3ccccc3OC[C@H]2O)o1,K-60 Clinical isolate,PR-L10I M46I I54V Q58E L63P I64V V77I V82F I84V L90M I93L,MT-4,,<0.016 µM
Cc1cn([C@H]2C[C@H](N=[N+]=[N-])[C@@H](CO)O2)c(=O)[nH]c1=O,,RT-E89G,PBMC,,0.02 µM
CCO/N=C(\c1ccc(Br)cc1)C1CCN(C2(C)CCN(C(=O)c3c(C)cc[n+]([O-])c3C)CC2)CC1,R5-16(PR-A71T) R5 clinical isolate,PR-A71T,PBMC,,0.0012 µM
Cc1cn([C@H]2C[C@H](N=[N+]=[N-])[C@@H](CO)O2)c(=O)[nH]c1=O,G910-6,,PBMC,,>10 µM
O=c1[nH]cnc2c1ncn2[C@H]1CC[C@@H](CO)O1,rA17,,MT-4,,<50 µM
Cc1ccccc1-n1ccc(CN2CCN(C[C@@H](O)C[C@@H](Cc3cccnc3)C(=O)N[C@H]3c4ccccc4OC[C@H]3O)[C@H](C(=O)NCC(F)(F)F)C2)c1,V-18C Clinical isolate,PR-L10I M36I N37D M46I R57K L63P A71V G73S I84V L90M I93L,MT-4,,<0.031 µM
Cc1nnc(C[C@H](C[C@H](O)CN2CCN(Cc3ccc(-c4ccc(Cl)cc4)o3)C[C@H]2C(=O)NCC(F)(F)F)C(=O)N[C@H]2c3ccccc3OC[C@H]2O)o1,K-60 Clinical isolate,PR-L10I M46I I54V Q58E L63P I64V V77I V82F I84V L90M I93L,MT-4,,<0.031 µM
CCc1cc(NCc2nc3c(Cl)ccc(Cl)c3o2)c(=O)[nH]c1C,IIIB,,PBL,,<0.05 µM
Nc1ncnc2c1ncn2[C@H]1CC[C@@H](CO)O1,BaL,,MM + M/M,,1 µM
S=C(NCCc1cccs1)Nc1ccc(Br)cn1,A17 RT-Y181C NNRTI-resistant,,PBMC,,0.77 µM
CC(C)=CCN1Cc2cc(Cl)cc3[nH]c(=S)n(c23)C[C@@H]1C,IIIB,RT-Y181C,CEM,,2 µg/mL
CC(C)=CCN1Cc2cccc3[nH]c(=S)n(c23)C[C@@H]1C,rA17,,MT-4,,<100 µM
Cc1ccc(-n2ccc(CN3CCN(C[C@@H](O)C[C@@H](Cc4cccnc4)C(=O)N[C@H]4c5ccccc5OC[C@H]4O)[C@H](C(=O)NCC(F)(F)F)C3)c2)cc1,V-18C Clinical isolate,PR-L10I M36I N37D M46I R57K L63P A71V G73S I84V L90M I93L,MT-4,,<0.015 µM
Cc1ccccc1NC(=O)CSc1nnnn1-c1cccc2ccccc12,,,MT-4,,<10 µM

7 of the rows above, restated:

COc1cc([N+](=O)[O-])ccc1NC(=O)CSc1nnnn1-c1c(C)cc(C)cc1C ; cell line: MT-4 ; value: <10 µM
O=C(N[C@H]1c2ccccc2OC[C@H]1O)[C@H](Cc1nnc(-c2ccccc2)o1)C[C@H](O)CN1CCN(Cc2ccc(-c3ccc(Cl)cc3)o2)C[C@H]1C(=O)NCC(F)(F)F ; strain: V-18 Clinical isolate ; mutations: PR-L10I M36I N37D M46I R57K L63P A71V G73S I84V L90M I93L ; cell line: MT-4 ; value: <0.25 µM
Cc1cn([C@H]2C=C[C@@H](CO)O2)c(=O)[nH]c1=O ; strain: NL4-3 WT ; cell line: PBMC ; value: 0.04 µM
COc1ccc(CN[C@@H](C(=O)N[C@H](C(=O)NCc2nc3ccccc3[nH]2)C(C)C)[C@H](O)[C@H](Cc2ccccc2)NC(=O)[C@@H](NC(=O)OCc2ccccc2)C(C)(C)C)cc1 ; strain: D747 ; cell line: Monocytes + Monocyte ; setting: clinical isolate ; value: 0.023 µM
S=C(NCCc1cccs1)Nc1ccc(Br)cn1 ; strain: A17 RT-Y181C NNRTI-resistant ; cell line: PBMC ; value: 0.77 µM
Cc1ccccc1NC(=O)CSc1nnnn1-c1cccc2ccccc12 ; cell line: MT-4 ; value: <10 µM
O=c1[nH]cnc2c1ncn2[C@H]1CC[C@@H](CO)O1 ; strain: rA17 ; cell line: MT-4 ; value: <50 µM